Source: patent EP2924021A1, “ANTI-HIV COMPOUND AND PREPARATION METHOD AND USE THEREOF” (priority 2012, dated 2014)

Assays:
HIV-1IIIB (C8166 cells) = test: Anti-HIV activity in C8166 cells; type: cell-based; conditions: TI(CC50/EC50)
HIV-1IIIB(H9 cells) = test: Anti-HIV activity in H9 cells; type: cell-based; conditions: TI(CC50/EC50)

Compound | TI (HIV-1IIIB (C8166 cells)) | TI (HIV-1IIIB(H9 cells))
5-(dimethylamino)-N-(2-methoxyphenyl)-2-((4-nitrophenyl)thio)benzamide [compound 28] | 1.11 | 0.78
COc1ccccc1NC(=O)c1c(N)cccc1Sc1ccc([N+](=O)[O-])cc1 [compound 25, 2-amino-N-(2-methoxyphenyl)-6-(4-nitrophenylthi-o)benzamide] | 310.02 | 206.68
COc1ccccc1NC(=O)c1cc(NC(C)=O)ccc1Sc1ccc([N+](=O)[O-])cc1 [compound 29, 5-acetamido-N-(2-methoxyphenyl)-2-((4-nitrophenyl)thio) benzamide] | 1.49 | <0.37
COc1ccccc1NC(=O)c1c(N)cccc1Oc1ccc([N+](=O)[O-])cc1 [compound 48, 2-amino-N-(2-methoxyphenyl)-6-(4-nitrop-henoxy)benzamide] |  | 2.14
Nc1cccc(NC(=O)c2c(N)cccc2Sc2ccc([N+](=O)[O-])cc2)c1 [compound 49, 2-amino-N-(3-aminophenyl)-6-(4-nitroph-enylthio)benzamide] |  | 4.82
COc1cc(N)ccc1NC(=O)c1c(N)cccc1Sc1ccc([N+](=O)[O-])cc1 [compound 50, 2-amino-N-(4-amino-2-methoxyphenyl)-6-(4-nitrophenylthio) benzamide] |  | 2.87
COc1ccc(NC(=O)c2c(N)cccc2Sc2ccc([N+](=O)[O-])cc2)c(OC)c1 [compound 51, 2-amino-N-(2,4-dimethoxyphenyl)-6-(4-nitrophenylthio) benzamide] |  | 0.96
COc1ccccc1NC(=O)c1c(NS(=O)(=O)c2ccccc2)cccc1Sc1ccc([N+](=O)[O-])cc1 [compound 56, N-(2-methoxyphenyl)-2-(4-nitrophenylthio)-6-(phenylsulfonamido) benzamide] | >8.17 | >1.46
COc1ccccc1NC(=O)c1c(NS(=O)(=O)c2ccc(C)cc2)cccc1Sc1ccc([N+](=O)[O-])cc1 [compound 57, N-(2-methoxyphenyl)-2-(4-methylphenylsulfonamido)-6-((4-nitrophenyl)thio) benzamide] | 2.65 | >11.90
COc1ccccc1NC(=O)c1c(NS(=O)(=O)c2ccc(C)cc2)cccc1S(=O)(=O)c1ccc([N+](=O)[O-])cc1 [compound 60, N-(2-methoxyphenyl)-2-(4-methylphenyls-ulfonamido)-6-((4-nitrophenyl)sulfonyl)benzamide] | >2.19 | 
COc1ccccc1NC(=O)c1c(Sc2ccc([N+](=O)[O-])cc2)cccc1N1CCNCC1 [compound 62, N-(2-methoxyphenyl)-2-((4-nitrophenyl)thio)-6-(piperazinyl) benzamide] | 2.99 | 3.71
COc1ccccc1NC(=O)c1c(Sc2ccc([N+](=O)[O-])cc2)cccc1N1CCOCC1 [compound 63, N-(2-methoxyphenyl)-2-morpholino-6-((4-nitrophenyl)thio) benzamide] | >3.75 | 
COc1ccccc1NC(=O)c1c(NCCBr)cccc1Sc1ccc([N+](=O)[O-])cc1 [compound 64, 2-((2-bromoethyl)amino)-N-(2-methoxyp-henyl)-6-((4-nitrophenyl)thio)benzamide] | 3.28 | 0.85
COc1ccccc1NC(=O)c1c(NC(=O)CN)cccc1Sc1ccc([N+](=O)[O-])cc1.Cl [compound 66, 2-(2-aminoacetamido)-N-(2-methoxyphenyl)-6-(4-nitrophenylthio) benzamide hydrochloride] | 97.01 | 451.69
CS(=O)(=O)Oc1ccccc1NC(=O)c1c(N)cccc1Sc1ccc([N+](=O)[O-])cc1 [compound 73, 2-(2-amino-6-((4-nitrophenyl)thio)benzamildo)phenyl methanesulfonate] | 5.28 | 
COc1ccccc1NC(=O)c1c(N)cccc1Sc1cc(C)cc(C)c1 [compound 74, 2-amino-6-((3,5-dimethylphenyl)thio)-N-(2-methoxyphenyl) benzamide] | 9.45 | 
COc1ccccc1NC(=O)c1c(NCCN)cccc1S(=O)(=O)c1ccc([N+](=O)[O-])cc1 [compound 79, 2-((2-aminoethyl)amino)-N-(2-methoxyphenyl)-6-((4-nitrophenyl)sulfonyl) benzamide] | 0.97 | 0.99
COc1ccccc1NC(=O)c1c(NCCO)cccc1Sc1ccc([N+](=O)[O-])cc1 [compound 80, 2-((2-hydroxyethyl)amino)-N-(2-methoxyphenyl)-6-((4-nitrophenyl)thio) benzamide] | 4.81 | 6.08
COc1ccccc1NC(=O)c1c(NCCO)cccc1S(=O)(=O)c1ccc([N+](=O)[O-])cc1 [compound 81, 2-((2-hydroxyethyl)amino)-N-(2-methoxyphenyl)-6-((4-nitrophenyl)sulfonyl) benzamide] | 1.15 | 0.71
